Compound potency records, mixed from different reports. Data source: NIAID ChemDB in PubChem.

Common to all: growth or infection tests; agent: HIV-1; method: p24; endpoint: EC50

Conditions beyond the fields shown may differ between rows. An empty or dashed field is not shown. ECn is the concentration giving n% inhibition of infection, replication or growth.

smiles	conditions	strain or isolate	changes	cells	result
Cc1ccnc(C(=O)CC(=O)c2cccc(Cc3ccccc3)c2)c1		IIIB		MT-4	<5 µM
Cc1cc(C)c(-n2nnnc2SCC(=O)Nc2ccccc2Br)c(C)c1				MT-4	<10 µM
CC(C)(C)OC(=O)N[C@@H](Cc1ccccc1)[C@H](O)CNC[C@@H](O)[C@H](Cc1ccc(OCC(=O)N2CCOCC2)cc1)NC(=O)OC(C)(C)C		IIIB		PBMC	0.02 µM
COc1ccc(CN[C@@H](C(=O)N[C@H](C(=O)NCc2nc3ccccc3[nH]2)C(C)C)[C@H](O)[C@H](Cc2ccccc2)NC(=O)[C@@H](NC(=O)[C@@](C)(O)c2ccccc2)C(C)(C)C)cc1		RF		MT-4	0.059 µM
CC(=O)c1ccccc1NC(=O)CSc1nnnn1-c1c(C)cc(C)cc1C				MT-4	<10 µM
Cc1cccc(NC(=S)N[C@H](C)c2cccc3ccccc23)n1		IIIB		PBMC	0.004 µM
COc1ccc2c(c1)N(C(=O)OC(C)C)[C@@H](CSC)C(=S)N2		MN		H9	0.006 µM
C[C@H](CNC(=S)Nc1ccc(Br)cn1)c1ccccc1		IIIB		PBMC	0.03 µM
Cc1ccnc2c1NC(=O)c1cccnc1N2C1CC1		IIIB		PBMC	0.034 µM
CC(C)[C@H](NC(=O)c1ccc2ccccc2n1)C(=O)N[C@@H](Cc1ccccc1)[C@H](O)CN1CC[C@@H](OCc2ccncc2)C[C@H]1C(=O)NC(C)(C)C		Nevirapine-resistant		PBMC	0.0036 µM
CCC[C@@]1(CCc2ccccc2)CC(O)=C([C@H](CC)c2cccc(NS(=O)(=O)c3ccc(C(F)(F)F)cn3)c2)C(=O)O1		Isolate UJ00004		PBMC	<0.8 µM
C[C@@H](CNC(=S)Nc1ccc(Br)cn1)c1ccccc1		NNRTI-resistant (RT Y181C) A17	RT-Y181C	PBMC	0.67 µM
Cc1cc(C)c(-n2nnnc2S(=O)CC(=O)Nc2ccccc2[N+](=O)[O-])c(C)c1				MT-4	<10 µM
Cc1ccccc1Cc1cccc(C(=O)CC(=O)C(=O)O)c1		HXB2			0.47 µM
COc1ccc(CN[C@@H](C(=O)N[C@H](C(=O)NCc2nc3ccccc3[nH]2)C(C)C)[C@H](O)[C@H](Cc2ccccc2)NC(=O)[C@@H](NC(=O)OCc2ccccc2)C(C)(C)C)cc1	clinical isolate	K31		Primary T4 lymphocytes + T4	0.0081 µM
Nc1ccn([C@H]2CC[C@@H](CO)O2)c(=O)n1		HXB2D (RT-K65R)	RT-K65R	MT-4	5.6 µM
CC(C)Nc1cccnc1N1CCN(C(=O)c2cc3cc(NS(C)(=O)=O)ccc3[nH]2)CC1		IIIB		PBMC	0.009 µM
O=C(NCc1ccc(F)cc1)c1nc(N2CCCCS2(=O)=O)c2cccnc2c1O			INTG-T66I M154I		0.0128 µM
COc1ccc(S(=O)(=O)N(CC(C)C)C[C@@H](O)[C@H](Cc2ccccc2)NC(=O)O[C@H]2CO[C@H]3OCC[C@H]32)cc1		Clinical isolate	PR-L10I V11I T12E I15V L19I R41K M46L L63 A71T V82A L90M	PBMC	0.0016 µM
Nc1ccn([C@@H]2CO[C@H](CO)S2)c(=O)n1		CCR5		PBMC	0.6 µM
Nc1ccn([C@@H]2CS[C@H](CO)O2)c(=O)n1		7295-1 NRTI resistant recombinant	RT-D67N T69N K70R M184V T215F K219Q	PBMC	>10 µM
COc1ccc2c(c1)N(C(=O)OC(C)C)[C@@H](CSC)C(=S)N2		A1(RT-G190E)	RT-G190E	H9	>10 µg/mL
CC(=O)N1CCC(C(=O)N(CCCN2CCC(Cc3ccc(C(N)=O)cc3)CC2)c2ccc(C)c(Cl)c2)CC1		CTV R5 clinical isolate		PBMC	0.00072 µM
CCc1cc(NCc2nc3c(Cl)ccc(Cl)c3o2)c(=O)[nH]c1C		Clinical isolate (RT K70R)	RT-K70R	PBMC	<0.2 µM
Nc1ccn([C@H]2CC[C@@H](CO)O2)c(=O)n1			RT-delta67 K103N	MT-2	0.199 µM
CC(C)(C)NC(=O)[C@@H]1CN(Cc2cccnc2)CCN1C[C@@H](O)C[C@@H](Cc1ccccc1)C(=O)N[C@H]1c2ccccc2C[C@H]1O		Clinical isolate	PR-L10I K43T M46L I54L L63P A71T V82A L90M Q92K	PBMC	>1 µM
C[C@H](CNC(=S)Nc1ccc(Cl)cn1)c1ccccc1		NNRTI-resistant (RT Y181C) A17	RT-Y181C	PBMC	0.54 µM
COC(=O)c1cccc(NC(=O)CSc2nnnn2-c2c(C)cc(C)cc2C)c1C				MT-4	<10 µM
Nc1ccn([C@H]2CC[C@@H](CO)O2)c(=O)n1		Recombinant	RT-V75I F77L Q151M	PBMC	0.12 µM
C=C(C)OC(=O)N1c2cc(Cl)ccc2NC(=S)C1(C)C		I420 AZT-resistant (RT M41L D67N K70R T215Y)	RT-M41L D67N K70R T215Y	PBL	0.003 µM
C/C(=C(/CCO)SS/C(CCO)=C(\C)N(C=O)Cc1cnc(C)nc1N)N(C=O)Cc1cnc(C)nc1N		RF		U-937/HIV-1(RF) + U-937	>125 µM
Cc1cn([C@H]2C[C@H](N=[N+]=[N-])[C@@H](CO)O2)c(=O)[nH]c1=O		XM-T69SSS	RT-T69SSS L210W T215Y	MT-4	<77 µM
C[C@H](NC(=O)[C@H](CCCN=C(N)N)NC(=O)c1ccc(CNCc2ccccn2)cc1)c1cccc2ccccc12		YU-10 X4 clinical isolate		PBMC	0.152 µM
O=c1[nH]cnc2c1ncn2[C@H]1CC[C@@H](CO)O1		XM-AZT-resistant	RT-M41L D67N K70R T215Y K219Q	PBMC	<8.5 µM
Cc1ccnc2c1NC(=O)c1cccnc1N2C1CC1		B8 (RT K101I K103N Y181C G190A)	RT-K101I K103N Y181C G190A	H9	>10 µg/mL
Cc1cn([C@H]2C=C[C@@H](CO)O2)c(=O)[nH]c1=O		NL4-3 WT		MT-2	0.053 µM
O=C1CN=C(c2ccc[nH]2)c2cc(Cl)ccc2N1		IIIB/LAI		MT-4	>9 µM
COC(=O)[C@H](C)NP(=O)(OC[C@@H]1CC[C@H](n2cnc3c(N)ncnc32)O1)Oc1ccccc1		IIIB		PBL	0.002 µM
CC(C)c1nc(CN(C)C(=O)N[C@H](C(=O)N[C@@H](Cc2ccccc2)C[C@H](O)[C@H](Cc2ccccc2)NC(=O)OCc2cncs2)C(C)C)cs1		Clinical isolate	PR-L10I K14R R41K M46L I54V L63P A71V V82A L90M I93L	PBMC	>1 µM
COC(=O)[C@H](C)NP(=O)(OC[C@@H]1C=C[C@H](n2cc(C)c(=O)[nH]c2=O)O1)Oc1ccc(Br)cc1		C467-4 NRTI resistant	RT-K20R D67N K70R Y188L T215F K219Q	PBMC	0.042 µM
O=c1[nH]cnc2c1ncn2[C@H]1CC[C@@H](CO)O1		Recombinant	RT-F116Y	PBMC	0.3 µM
Cc1cccc(NC(=S)NC[C@H](C)c2ccccc2)n1		NNRTI-resistant (RT Y181C K103N) A17V	RT-Y181C K103N	PBMC	1.19 µM
CC(C)OC(=O)OCOP(=O)(CO[C@H](C)Cn1cnc2c(N)ncnc21)OCOC(=O)OC(C)C		A17	RT-K103N Y181C	MT-2	0.001 µM
CC(C)(C)NC(=O)[C@@H]1C[C@@H]2CCCC[C@@H]2CN1C[C@@H](O)[C@H](Cc1ccccc1)NC(=O)[C@H](CC(N)=O)NC(=O)c1ccc2ccccc2n1		RF	PR-G48V L90M	C8166	0.02 µM
Cc1cn([C@H]2C[C@H](N=[N+]=[N-])[C@@H](CO)O2)c(=O)[nH]c1=O			RT-D67N K70R T215F K219Q	C8166	0.53 µM
CN[C@@H]1[C@H](O[C@@H]2OC[C@@H](O)[C@H](O)[C@H]2O)[C@@H](O)[C@H](O[C@H]2c3cc(C)c(C(=O)N[C@H](C)C(=O)O)c(O)c3-c3c(cc4c(c3O)C(=O)c3cc(OC)cc(O)c3C4=O)[C@@H]2O)O[C@@H]1C		UG273 R5 CLADE A		PBMC	2.2 µg/mL
COC(=O)[C@H](C)NP(=O)(OC[C@@H]1C=C[C@H](n2cnc3c(N)ncnc32)O1)Oc1ccccc1		BaL		MM + M/M	0.01 µM
Cc1c(O)cccc1C(=O)N[C@@H](CSc1ccccc1)[C@H](O)CN1C[C@H]2CCCC[C@H]2C[C@H]1C(=O)NC(C)(C)C		Clinical isolate	PR-L10R N37D M46I I62V L63P A71V G73S V77I V82T L90M I93L	PBMC	>1 µM
O=c1[nH]cnc2c1ncn2[C@H]1CC[C@@H](CO)O1			RT-L74V	C8166	16 µM

Again, the opening 5 rows:

{"smiles": "Cc1ccnc(C(=O)CC(=O)c2cccc(Cc3ccccc3)c2)c1", "strain or isolate": "IIIB", "cells": "MT-4", "result": "<5 µM"}
{"smiles": "Cc1cc(C)c(-n2nnnc2SCC(=O)Nc2ccccc2Br)c(C)c1", "cells": "MT-4", "result": "<10 µM"}
{"smiles": "CC(C)(C)OC(=O)N[C@@H](Cc1ccccc1)[C@H](O)CNC[C@@H](O)[C@H](Cc1ccc(OCC(=O)N2CCOCC2)cc1)NC(=O)OC(C)(C)C", "strain or isolate": "IIIB", "cells": "PBMC", "result": "0.02 µM"}
{"smiles": "COc1ccc(CN[C@@H](C(=O)N[C@H](C(=O)NCc2nc3ccccc3[nH]2)C(C)C)[C@H](O)[C@H](Cc2ccccc2)NC(=O)[C@@H](NC(=O)[C@@](C)(O)c2ccccc2)C(C)(C)C)cc1", "strain or isolate": "RF", "cells": "MT-4", "result": "0.059 µM"}
{"smiles": "CC(=O)c1ccccc1NC(=O)CSc1nnnn1-c1c(C)cc(C)cc1C", "cells": "MT-4", "result": "<10 µM"}